The values below are quoted from earlier work in patent US9340590B2 (priority 2011, dated 2016).

The chains behind the UniProt entries cited, without tags or fusion partners.
UniProt P04775, whole entry, looked up: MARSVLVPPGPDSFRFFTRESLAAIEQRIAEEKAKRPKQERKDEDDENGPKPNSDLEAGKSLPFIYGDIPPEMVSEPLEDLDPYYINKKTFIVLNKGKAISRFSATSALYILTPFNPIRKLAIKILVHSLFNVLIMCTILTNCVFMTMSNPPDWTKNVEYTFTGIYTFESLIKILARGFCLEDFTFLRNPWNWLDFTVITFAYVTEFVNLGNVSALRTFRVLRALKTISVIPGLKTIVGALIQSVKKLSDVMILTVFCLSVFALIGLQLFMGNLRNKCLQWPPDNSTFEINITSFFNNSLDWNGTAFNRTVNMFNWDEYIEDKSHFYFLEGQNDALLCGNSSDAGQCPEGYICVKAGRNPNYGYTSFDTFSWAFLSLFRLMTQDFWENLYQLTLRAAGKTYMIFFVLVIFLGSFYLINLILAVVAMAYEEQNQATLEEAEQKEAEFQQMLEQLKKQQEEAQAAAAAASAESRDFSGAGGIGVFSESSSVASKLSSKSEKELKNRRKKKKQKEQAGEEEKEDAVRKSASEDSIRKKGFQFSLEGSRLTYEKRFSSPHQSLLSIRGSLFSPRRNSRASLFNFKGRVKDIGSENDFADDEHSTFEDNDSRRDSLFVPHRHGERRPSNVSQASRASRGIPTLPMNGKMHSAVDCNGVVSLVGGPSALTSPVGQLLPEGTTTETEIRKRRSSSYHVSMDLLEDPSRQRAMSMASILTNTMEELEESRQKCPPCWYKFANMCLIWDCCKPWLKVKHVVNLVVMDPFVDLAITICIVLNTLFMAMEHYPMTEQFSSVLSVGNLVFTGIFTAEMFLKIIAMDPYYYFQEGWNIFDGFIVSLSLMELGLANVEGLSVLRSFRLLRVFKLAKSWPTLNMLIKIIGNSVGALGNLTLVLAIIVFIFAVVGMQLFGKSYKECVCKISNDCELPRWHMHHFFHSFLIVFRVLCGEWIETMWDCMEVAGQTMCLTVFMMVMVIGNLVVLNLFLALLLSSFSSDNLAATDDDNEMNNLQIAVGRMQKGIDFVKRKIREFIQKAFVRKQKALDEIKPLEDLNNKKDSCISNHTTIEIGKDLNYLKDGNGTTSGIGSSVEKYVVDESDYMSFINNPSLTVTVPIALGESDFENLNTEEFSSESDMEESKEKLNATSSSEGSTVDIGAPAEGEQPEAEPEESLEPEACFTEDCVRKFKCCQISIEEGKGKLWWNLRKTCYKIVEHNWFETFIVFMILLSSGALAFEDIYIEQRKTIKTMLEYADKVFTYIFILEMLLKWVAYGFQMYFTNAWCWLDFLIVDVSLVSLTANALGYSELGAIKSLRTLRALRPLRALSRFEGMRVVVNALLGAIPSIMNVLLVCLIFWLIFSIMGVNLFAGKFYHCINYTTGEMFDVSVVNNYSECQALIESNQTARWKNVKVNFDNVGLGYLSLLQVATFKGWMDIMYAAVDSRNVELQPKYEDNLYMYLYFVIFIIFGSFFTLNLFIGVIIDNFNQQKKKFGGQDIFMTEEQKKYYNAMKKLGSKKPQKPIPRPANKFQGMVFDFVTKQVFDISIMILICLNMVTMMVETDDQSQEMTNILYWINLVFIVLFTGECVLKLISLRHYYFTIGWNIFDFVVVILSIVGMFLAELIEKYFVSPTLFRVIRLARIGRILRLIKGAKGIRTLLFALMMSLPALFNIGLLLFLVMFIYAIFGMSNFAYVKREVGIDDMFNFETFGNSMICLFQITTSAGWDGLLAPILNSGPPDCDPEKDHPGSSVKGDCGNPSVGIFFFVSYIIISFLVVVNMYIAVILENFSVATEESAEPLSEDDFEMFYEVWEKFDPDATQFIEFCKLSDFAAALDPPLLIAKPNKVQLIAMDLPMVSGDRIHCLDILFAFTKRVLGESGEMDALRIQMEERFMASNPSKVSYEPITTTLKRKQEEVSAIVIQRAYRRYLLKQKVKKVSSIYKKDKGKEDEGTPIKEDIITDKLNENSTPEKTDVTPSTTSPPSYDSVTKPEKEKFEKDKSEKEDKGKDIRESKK

In one series the target is Nav1.1 (Rattus norvegicus, UniProt P04774). The settings on record: read-out: TTX IC50; cited from earlier work.
The next series concerns the target Nav1.2 (Rattus norvegicus, UniProt P04775). The note with it: read-out: TTX IC50; cited from earlier work.

Broadly, the IC50 is the concentration that gives 50% inhibition. As to `NC1=N[C@H](O)[C@H]2[C@H]3O[C@]4(O)O[C@@H]([C@@H](O)[C@@]2(N1)[C@@H]4O)[C@]3(O)CO` [TTX, tetrodotoxin], the IC50 on Nav1.1 and at Nav1.2 was 10 nM throughout.
